Test results taken from patent US11246857B2, “Anti-fungal inhibitors” (THE JOHNS HOPKINS UNIVERSITY, priority 2017, dated 2022).
The source's definition of the ratio is not given here.

What follows are compounds tested on human fibroblast (assay: Toxicity against human fibroblast). Conditions: therapeutic index calculated from toxicity against human fibroblast and MIC.
Assay type: cell-based
From the text: XlogP values are derived from PubChem and describe the lipophilicity of the molecule. The topological polar surface area (tPSA) is a metric for predicting cell penetration, with values <140 to be favorable. […] Toxicity against human fibroblast was used to calculate the therapeutic index TI.
`Cc1ccc(Nc2nc(-c3ccccn3)cs2)cc1` [Compound 64] showed a TI greater than 5.3. `Cc1ccc2c(c1)c1cc(C)ccc1n2CC(O)CNC1CCCCC1` (stereo not shown) [Compound 380] gave a TI of 2.6. `Cc1ccc2cc3c(N)c4c(C)ccc(C)c4nc3nc2c1` [Compound 253] showed a TI of 0.5. `O=C(Nc1cccc(C(F)(F)F)c1)c1cc(Cl)ccc1O` [Compound 155] showed a TI of 0.02.
